Results of unrelated studies side by side (data: NIAID ChemDB).

Common to all: whole-cell or culture tests; species: Mycobacterium tuberculosis

An empty or dashed field is not shown. Rows are shuffled and stem from different studies. ECn: concentration that inhibits the pathogen or its effect by n%. MIC bound comes from a single tested concentration. MIC50, MIC90 and the like: level of inhibition, or share of isolates inhibited. Inhibition is in % at the dose shown (toxicity tests: loss of growth or viability). Two numbers with a dash give a range or band.

compound	dose	mutations	read by	strain	read-out	result
CC1=C(C(=O)Nc2ccc(F)cc2)C(c2ccccc2Cl)C(C(=O)Nc2ccc(F)cc2)=C(C)N1				H37Rv	MIC	>6.25 µg/mL
COc1ccc2c(c[n+](C)c3c4cc5c(cc4ccc23)OCO5)c1OC	12.5 µg/mL		BACTEC	H37Rv	inhibition	99%
Cc1ccccc1CSc1nc(=O)[nH]c2nc[nH]c12				H37Ra	MIC	>12.8 µg/mL
O=C(Nc1cnc2ccccc2c1)c1cc(C2C3CC4CC(C3)CC2C4)c2ccccc2n1	6.25 µg/mL		BACTEC	H37Ra	inhibition	40%
Cc1ccc(Sc2nc(Cl)nc3nc[nH]c23)cc1				H37Rv	MIC90	>6.25 µg/mL
O=c1oc2ccccc2cc1-c1cs/c(=N\N=C\c2cc([N+](=O)[O-])ccc2O)n1C1CCCCC1	6.25 µg/mL			H37Rv	inhibition	24%
O=c1nc(SCc2ccccc2F)c2[nH]cnc2[nH]1				H37Ra	MIC	8 µg/mL
CC1=C(C(=O)Nc2ccc(C)cc2C)C(c2ccc(O)cc2)C(C(=O)Nc2ccc(C)cc2C)=C(C)N1				H37Rv	MIC	>12.5 µg/mL
O=C(/C=C/c1ccccc1)c1cc(Br)ccc1O				H37Rv	EC50	<12.5 µg/mL
CO[C@@H]1C2Cc3ccccc3C(c3ccccc3)C2[C@H](OC)[C@H]2O[C@@H](c3ccccc3)O[C@H]21			BACTEC	H37Rv	MIC bound	>12.5 µg/mL
COc1cccc(C2C(C(=O)Nc3ccc([N+](=O)[O-])cc3)=C(C)NC(C)=C2C(=O)Nc2ccc([N+](=O)[O-])cc2)c1				H37Rv	MIC	>6.25 µg/mL
CN[C@@H]1[C@H](O[C@H]2[C@H](O[C@H]3[C@H](O)[C@@H](O)[C@H](N=C(N)N)[C@@H](O)[C@@H]3N=C(N)N)O[C@@H](C)[C@]2(O)C=O)O[C@@H](CO)[C@H](O)[C@H]1O				TN3218 (W3)	MIC	>2 µg/mL
CC1(C)Oc2ccc3ccc(=O)oc3c2C(O)C1O	12.5 µg/mL		BACTEC	H37Rv	inhibition	8%
CC(C)(C)c1ccc(C(=O)CCC(=O)NC[C@H]2CN(c3ccc(-n4cncn4)c(F)c3)C(=O)O2)cc1				ATCC 27294	MIC	2 µg/mL
CCCCn1c(-c2ccc(C)cc2)cs/c1=N\NC(=O)COc1cnccn1				H37Rv	MIC	20 µg/mL
COc1ccc(/C=C/C(=O)c2ccccn2)cc1					EC50	>12.5 µg/mL
NNC(=O)Cc1cc(C2CCCCC2)nc2c(C3CCCCC3)cccc12			BACTEC	H37Ra	MIC	>6.25 µg/mL
COc1cc2c(C)[n+](C)c3c4cc5c(cc4ccc3c2cc1OC)OCO5			BACTEC	H37Rv	MIC	<12.5 µg/mL
Cc1ccc(C)c(Sc2ncnc3nc[nH]c23)c1	6.25 µg/mL			H37Rv	inhibition	0%
NNC(=O)c1ccncc1		Isoniazid-resistant	broth dilution	35822	MIC80	>15 µM
CC(C)Cn1c(-c2ccc(Br)cc2)cs/c1=N\NC(=O)COc1cnccn1				H37Rv	MIC	6.3 µg/mL
COc1ccc(C2C(C(=O)Nc3cc(C)ccc3C)=C(C)NC(C)=C2C(=O)Nc2cc(C)ccc2C)cc1OC				H37Rv	MIC	>6.25 µg/mL
CO[C@H]1/C=C/O[C@@]2(C)Oc3c(C)c(O)c4c(=O)c(c5oc6cc(N7CCN(CC(C)C)CC7)cc(=O)c6nc5c4c3=C2O)NC(=O)/C(C)=C\C=C\[C@H](C)[C@H](O)[C@@H](C)[C@@H](O)[C@@H](C)[C@H](OC(C)=O)[C@@H]1C				TN659	MIC	8 µg/mL
O=C(/C=C/c1cccc(I)c1)c1ccccc1O					EC50	<12.5 µg/mL
COC(=O)c1nc(=S)[nH]c(C(=O)OC)c1C(=O)c1ccccn1			BACTEC	H37Rv	MIC bound	>12.5 µg/mL
CC1COc2c(N3CCN(C)CC3)c(F)cc3c(=O)c(C(=O)O)cn1c23				1773-6	MIC	0.5 µg/mL
Cc1ccc(CSc2ncnc3nc[nH]c23)cc1				H37Rv	MIC90	>6.25 µg/mL
O=C1c2ccccc2OC(c2cccc(Cl)c2)C1O	12.5 µg/mL				inhibition	63%
COC(=O)C1(C)CCCC2(C)c3cc(C(C)=O)c(C(C)C)cc3CCC12			BACTEC	H37Rv	MIC bound	>12.5 µg/mL
COc1ccc(OC)c(/C=N/N=c2/scc(-c3cc4cc(Br)ccc4oc3=O)n2C2CCCCC2)c1				H37Rv	MIC	>6.25 µg/mL
COc1ccc(C2C(C(=O)Nc3ccc([N+](=O)[O-])cc3)=C(C)NC(C)=C2C(=O)Nc2ccc([N+](=O)[O-])cc2)cc1				H37Rv	MIC	>6.25 µg/mL
CC(=O)NNC(=S)N/C=C(/C(=O)c1ccccc1)c1ccccc1			BACTEC	H37Rv	MIC bound	>12.5 µg/mL
CO[C@H]1/C=C/O[C@@]2(C)Oc3c(C)c(O)c4c(O)c(c(/C=N/N5CCN(C)CC5)c(O)c4c3C2=O)NC(=O)/C(C)=C\C=C\[C@H](C)[C@H](O)[C@@H](C)[C@@H](O)[C@@H](C)[C@H](OC(C)=O)[C@@H]1C		31f (604276) resistant	broth dilution		MIC80	0.004 µM
NNC(=O)c1c(C2CCCCC2)nc2ccccc2c1C1CCCCC1	6.25 µg/mL		BACTEC	H37Ra	inhibition	44%
COc1cc2c(cc1O)c[n+](C)c1c3cc4c(cc3ccc21)OCO4	12.5 µg/mL		BACTEC	H37Rv	inhibition	87%
CO[C@H]1/C=C/O[C@@]2(C)Oc3c(C)c(O)c4c(O)c(c5c(c4c3C2=O)NC2(CCN(CC(C)C)CC2)N=5)=NC(=O)/C(C)=C\C=C\[C@H](C)[C@H](O)[C@@H](C)[C@@H](O)[C@@H](C)[C@H](OC(C)=O)[C@@H]1C				3147 (rifampin-sensitive)	MIC	0.012 µg/mL
O=C(CCC(=O)c1ccccc1)NC[C@H]1CN(c2ccc(N3CCOCC3)c(F)c2)C(=O)O1				10 clinical isolates resistant	MIC	>16 µg/mL
NNC(=O)c1cc(C2C3CC4CC(C3)CC2C4)c2ccccc2n1			BACTEC	H37Ra	MIC	6.25 µg/mL
Cn1cc(C(=O)C2CCCCC2)ccc1=O	6.25 µg/mL		resazurin	H37Rv	inhibition	17%
Cc1ccc(C(=O)CCC(=O)NC[C@H]2CN(c3ccc(-n4cncn4)c(F)c3)C(=O)O2)c(C)c1				10 clinical isolates resistant	MIC	1–2 µg/mL
O=c1oc2ccccc2cc1-c1cs/c(=N/N=C/c2ccc(Cl)c(Cl)c2)n1C1CCCCC1				H37Rv	MIC	>6.25 µg/mL
COc1ccccc1CSc1ccncc1				H37Rv	MIC90	>6.25 µg/mL
COc1cc2c3c(OC)cc4c(c3c[n+](C)c2c2cc3c(cc12)OCO3)OCO4			BACTEC	H37Rv	MIC	<12.5 µg/mL
COc1ccc(/C=N/N=c2\scc(-c3cc4cc(Br)ccc4oc3=O)n2C2CCCCC2)cc1				H37Rv	EC50	<6.25 µg/mL
O=C(COc1cnccn1)N/N=c1\scc(-c2ccc(O)cc2)n1-c1ccc(Cl)cc1Cl				H37Rv	MIC	21 µg/mL
CC(C)=CN=Cc1nc(Cc2ccccc2)oc1O.O=C(O)C(F)(F)F			BACTEC	H37Rv	MIC bound	>12.5 µg/mL
COc1cc2ccc3c4c(OC)cc(OC)c(OC)c4c[n+](C)c3c2cc1OC	12.5 µg/mL		BACTEC	H37Rv	inhibition	66%
CCOC(=O)Nc1c(C)n(C)n(-c2ccccc2)c1=O			BACTEC	H37Rv	MIC bound	>12.8 µg/mL
CO[C@H]1/C=C/O[C@@]2(C)Oc3c(C)c(O)c4c(=O)c(c5oc6cc(N7CCN(C(C)C)CC7)cc(=O)c6nc5c4c3=C2O)NC(=O)/C(C)=C\C=C\[C@H](C)[C@H](O)[C@@H](C)[C@@H](O)[C@@H](C)[C@H](OC(C)=O)[C@@H]1C				2624 (rifampin-sensitive)	MBC	0.012 µg/mL
O=c1oc2ccccc2cc1-c1cs/c(=N/N=C/c2ccc(F)cc2)n1C1CCCCC1				H37Rv	EC50	>6.25 µg/mL
CN[C@@H]1[C@H](O[C@H]2[C@H](O[C@H]3[C@H](O)[C@@H](O)[C@H](N=C(N)N)[C@@H](O)[C@@H]3N=C(N)N)O[C@@H](C)[C@]2(O)C=O)O[C@@H](CO)[C@H](O)[C@H]1O		Streptomycin-resistant	broth dilution	35820	MIC80	>11 µM
CN(C)C(=S)SCN1C(=O)c2ccccc2C1=O			BACTEC	H37Rv	MIC	1.6 µg/mL
O=C(COc1cnccn1)N/N=c1\scc(-c2ccc(O)cc2)n1-c1ccc(Cl)cc1[N+](=O)[O-]				H37Rv	MIC	4 µg/mL
NC(=O)c1cnccn1				CA516	MIC	512 µg/mL
CC[n+]1c2ccc(C)cc2nc2c3ccccc3c(N)cc21.[Cl-]				H37Rv	MIC	6.25 µg/mL
O=C(O)c1ccc(O)c(C(=O)/C=C/c2cccc(I)c2)c1				H37Rv	EC50	>12.5 µg/mL
NNC(=O)c1cc(C2CCCCC2)c2cccc(C3CCCCC3)c2n1			BACTEC	H37Ra	MIC	>6.25 µg/mL
Cc1ccc(/C=N/N=c2/scc(-c3cc4ccccc4oc3=O)n2C2CCCCC2)cc1				H37Rv	MIC	>6.25 µg/mL
Cc1c(C(=O)C/C(=N\NC(=O)C[n+]2ccccc2)C(=O)Nc2ccccc2)[n+](=O)c2ccccc2n1[O-].[Cl-]	12.5 µg/mL		BACTEC	H37Rv	inhibition	65%
CC1=C(C(=O)Nc2ccccc2Cl)C(c2ccc(N(C)C)cc2)C(C(=O)Nc2ccccc2Cl)=C(C)N1				H37Rv	MIC	>12.5 µg/mL
CC(C)n1c(-c2ccc(F)cc2)cs/c1=N\NC(=O)COc1cnccn1				H37Rv	MIC	21 µg/mL
Nc1ncccc1/C=C/C(=O)c1cc(Cl)ccc1O	12.5 µg/mL			H37Rv	inhibition	0%
CCO/C(O)=C(/C(=N)N1CCCC1)C(=O)Nc1cccc(Cl)c1			resazurin	H37Rv	MIC bound	>6.25 µg/mL
CC1=C(C(=O)Nc2ccccc2C)C(c2ccc(N(C)C)cc2)C(C(=O)Nc2ccccc2C)=C(C)N1				H37Rv	MIC	>12.5 µg/mL
Nc1nc(N)c2nc3c(nc2n1)C(=O)N(c1ccc(C(=O)O)cc1)C3			BACTEC	H37Rv	MIC	≥12.8 µg/mL
COc1cc2c(ccc3c4cc(OC)c(OC)cc4c[n+](C)c23)cc1O	12.5 µg/mL		BACTEC	H37Rv	inhibition	66%
NNC(=O)c1ccccc1SSc1ccccc1C(=O)NN				CS-R	MIC	>12.5 µg/mL
Cc1ccc(-c2cs/c(=N\NC(=O)COc3cnccn3)n2C(C)C)cc1				H37Rv	MIC	13 µg/mL
CCN1CCCC(NP2(=O)OCC(C)([N+](=O)[O-])CO2)C1			resazurin	H37Rv	MIC bound	>6.25 µg/mL
COc1ccc(/C=C/C(=O)c2cc(Cl)ccc2O)cc1					EC50	>12.5 µg/mL
CN1CC2(C)OC3(CC2(C)N1C)N(C)N(C)CC3(C)O			BACTEC	H37Rv	MIC	≥128 µg/mL
COc1ccc(NC(=O)c2cc(C3C4CC5CC(C4)CC3C5)c3ccccc3n2)cc1	6.25 µg/mL		BACTEC	H37Ra	inhibition	35%
CCN(CC)CCNc1n[n+]([O-])c2cc([N+](=O)[O-])ccc2[n+]1[O-]	6.25 µg/mL		BACTEC	H37Rv	inhibition	30%
CC(C)Oc1cc2c[n+](C)c3c4cc5c(cc4ccc3c2cc1O)OCO5	12.5 µg/mL		BACTEC	H37Rv	inhibition	93%
CS(=O)(=O)OCCN(CCOS(C)(=O)=O)c1ccc(C=Nc2ccc3oc(=O)ccc3c2)cc1			resazurin	H37Rv	MIC bound	>6.25 µg/mL
O=C(CCC(=O)c1cccs1)NC[C@H]1CN(c2ccc(N3CCCC3)c(F)c2)C(=O)O1				10 clinical isolates resistant	MIC	2–8 µg/mL
Cc1cc(=O)[nH]c(N/N=C/c2ccc(N(C)C)cc2Cl)n1			BACTEC	H37Rv	MIC bound	>12.5 µg/mL
O=c1oc2ccc(Br)cc2cc1-c1cs/c(=N/N=C/c2ccc(Br)cc2)n1C1CCCCC1	6.25 µg/mL			H37Rv	inhibition	6%
CC(C)C1C=C2CCC3C(C)(C(=O)O)CCCC3(C)C2CC1	128 µg/mL		BACTEC	H37Rv	inhibition	100%
COc1cc(/C=N/N=c2/scc(-c3cc4cc(Br)ccc4oc3=O)n2C2CCCCC2)ccc1O				H37Rv	EC50	>6.25 µg/mL

Repeating the first 7 entries:

compound,dose,mutations,read by,strain,read-out,result
CC1=C(C(=O)Nc2ccc(F)cc2)C(c2ccccc2Cl)C(C(=O)Nc2ccc(F)cc2)=C(C)N1,,,,H37Rv,MIC,>6.25 µg/mL
COc1ccc2c(c[n+](C)c3c4cc5c(cc4ccc23)OCO5)c1OC,12.5 µg/mL,,BACTEC,H37Rv,inhibition,99%
Cc1ccccc1CSc1nc(=O)[nH]c2nc[nH]c12,,,,H37Ra,MIC,>12.8 µg/mL
O=C(Nc1cnc2ccccc2c1)c1cc(C2C3CC4CC(C3)CC2C4)c2ccccc2n1,6.25 µg/mL,,BACTEC,H37Ra,inhibition,40%
Cc1ccc(Sc2nc(Cl)nc3nc[nH]c23)cc1,,,,H37Rv,MIC90,>6.25 µg/mL
O=c1oc2ccccc2cc1-c1cs/c(=N\N=C\c2cc([N+](=O)[O-])ccc2O)n1C1CCCCC1,6.25 µg/mL,,,H37Rv,inhibition,24%
O=c1nc(SCc2ccccc2F)c2[nH]cnc2[nH]1,,,,H37Ra,MIC,8 µg/mL